Compound potency records, mixed from different reports. Data source: NIAID ChemDB in PubChem.

Common to all: growth or infection tests; organism: Hepatitis B virus; measure: EC50

ECn is the concentration giving n% inhibition of infection, replication or growth.

| compound | read by | cell line | mutations | value |
|---|---|---|---|---|
| CNC(=O)C(=O)N1CCC[C@@H](NS(=O)(=O)c2cn(C)c(C(=O)Nc3cc(F)c(F)c(F)c3)c2Cl)C1 | PCR | HepAD38 cells |  | <0.1 µM |
| C[C@]1(c2ncc(Cc3ccccc3)s2)CN(C(=O)c2ccc(Br)c(Cl)c2)CCS1(=O)=O | PCR | HepG2.117 |  | 0.1–0.5 µM |
| COC(=O)C1=C(CN2CC(F)(F)[C@@H]3[C@H]2CON3C[C@](C)(O)C(C)(C)C(=O)O)NC(c2nccs2)=N[C@H]1c1ccc(F)c(F)c1C | PCR | HepG2.2.15 |  | 0.044 µM |
| COc1ccc(-n2c(C(=O)NCc3ccccc3)c3n(c2=O)CCN(C(=O)c2cc4c(Cl)cccc4[nH]2)C3)cc1 | PCR | HepG2.117 |  | 0.1–0.5 µM |
| CCOC(=O)C1=C(CN2CC(F)(F)[C@@H]3[C@H]2CON3[C@H](C)[C@H](O)C(C)(C)C(=O)O)NC(c2nccs2)=N[C@H]1c1cccc(F)c1C | PCR | HepG2.2.15 |  | 0.011 µM |
| Cn1nc2cc(NS(=O)(=O)NC(=O)C3CC3)ccc2c1C(=O)Nc1ccc(F)c(Cl)c1 | PCR | HepAD38 |  | >1000 µM |
| CCOC(=O)C1=C(CN2CC(F)(F)[C@H]3[C@@H]2CCN3C[C@@](C)(O)C(=O)O)NC(c2nccs2)=N[C@H]1c1cccc(F)c1F | PCR | HepG2.2.15 |  | 0.098 µM |
| C[C@@H]1Cn2c(c(C(=O)NCc3ccccc3-n3ccc(F)n3)n(-c3ccc(OC4CC4)cc3)c2=O)CN1C(=O)c1ccc(Br)c(Cl)c1 | PCR | HepG2.117 |  | 0.1–0.5 µM |
| Cc1cc(NC(=O)c2c3c(cn2C)S(=O)(=O)N[C@H]2CN(C(=O)C(=O)NC(C)C)C[C@H]2CO3)ccc1F | PCR | HepAD38 |  | <0.5 µM |
| CNC(=O)c1ccc(-n2c(C(=O)NCc3ccccc3)c3n(c2=O)CCN(C(=O)c2ccc(Br)c(Cl)c2)C3)cc1 | PCR | HepG2.117 |  | >5 µM |
| COC(=O)C1=C(CN2CC(F)(F)[C@@H]3[C@H]2CON3CC[C@@](C)(O)C(=O)O)NC(c2nccs2)=N[C@H]1c1ccc(F)c(F)c1Cl | PCR | HepG2.2.15 |  | 0.178 µM |
| Cn1nc2cc(NS(=O)(=O)N3CCCCC3)ccc2c1C(=O)Nc1ccc(F)c(Cl)c1 | PCR | HepAD38 |  | 100–1000 µM |
| C[C@H](NC(=O)c1c2n(c(=O)n1-c1ccc(OC3CC3)cc1)CCN(C(=O)c1ccc(Br)c(Cl)c1)C2)c1ccc(OCC#N)cc1F | PCR | HepG2.117 |  | 0.1–0.5 µM |
| C[C@@H](NC(=O)C(=O)N1C[C@H]2COc3c(c(Cl)n(C)c3C(=O)Nc3ccc(F)c(C(F)F)c3)S(=O)(=O)N[C@H]2C1)C(F)(F)F | PCR | HepAD38 |  | <0.5 µM |
| C[C@H](NC(=O)C1C2CN(C(=O)c3ccc(Br)c(Cl)c3)CCN2C(=O)N1c1ccc(OC2COC2)cc1)c1ccccc1 | PCR | HepG2.117 |  | 0.5–5 µM |
| Cn1cc(S(=O)(=O)N[C@@H]2CCN(S(=O)(=O)C3(C)CC3)C2)c(F)c1C(=O)Nc1ccc(F)c(F)c1 | PCR | HepAD38 cells |  | <0.1 µM |
| O=C(N/C(C(=O)N1CCCCC1)=C(/Cl)c1ccccc1)c1ccccc1 |  | HepG2 |  | 2.9 µM |
| CCOC(=O)C1=C(CN2CC(F)(F)[C@@H]3[C@H]2CON3C[C@H](O)C(C)(C)C(=O)O)NC(c2nccs2)=N[C@H]1c1ccc(F)c(F)c1C | PCR | HepG2.2.15 |  | 0.0115 µM |
| Cn1cc(S(=O)(=O)Nc2ccc3c(C(=O)Nc4ccc(F)c(Cl)c4)n(CC4CC4)nc3c2)cn1 | PCR | HepAD38 |  | 100–1000 µM |
| Cc1cc(NC(=O)c2c3c(cn2C)S(=O)(=O)N[C@H]2CN(C(=O)C(=O)NCC(F)(F)F)C[C@H]2CO3)ccc1F | PCR | HepAD38 |  | <0.5 µM |
| Cn1nc2cc(NS(=O)(=O)c3ccn(CC4CNC4)n3)ccc2c1C(=O)Nc1ccc(F)c(Cl)c1 | PCR | HepAD38 |  | >1000 µM |
| CNC(=O)C(=O)N1CC2COc3c(cn(C)c3C(=O)Nc3cc(F)c(F)c(F)c3)S(=O)(=O)NC2C1 | PCR | HepAD38 |  | <0.5 µM |
| CCOC(=O)C1=C(CN2CC(F)(F)[C@@H]3[C@H]2CON3CC[C@](C)(O)C(=O)O)NC(c2nccs2)=N[C@H]1c1ccc(F)c(F)c1C | PCR | HepG2.2.15 |  | 0.039 µM |
| Cc1cc(NC(=O)c2c3c(cn2C)S(=O)(=O)N[C@H]2CN(C(=O)C(=O)N[C@H](C)C(F)(F)F)C[C@H]2CO3)ccc1F | PCR | HepG2 | Y118F | 0.00637 µM |
| Cn1nc2cc(NS(=O)(=O)C3CC(OCc4ccccc4)C3)ccc2c1C(=O)Nc1ccc(F)c(Cl)c1 | PCR | HepAD38 |  | 100–1000 µM |
| CCNC(=O)C(=O)N1CCC(NS(=O)(=O)c2cn(C)c(C(=O)Nc3ccc(F)c(C)c3)c2F)CC1 | PCR | HepAD38 cells |  | <0.1 µM |
| Cn1nc2cc(NS(=O)(=O)c3cnn(CC4CNC4)c3)ccc2c1C(=O)Nc1ccc(F)c(Cl)c1 | PCR | HepAD38 |  | <100 µM |
| CCOC(=O)C1=C(CN2CC(F)(F)[C@H]3[C@@H]2CCN3C[C@H](O)C(C)(C)C(=O)O)NC(c2nccs2)=N[C@@H]1c1cccc(F)c1F | PCR | HepG2.2.15 |  | 0.035 µM |
| O=C(Nc1ccc(F)c(Cl)c1)c1c2ccc(NS(=O)(=O)C3CC3)cc2nn1CC1CC1 | PCR | HepAD38 |  | >1000 µM |
| Cc1cc(NC(=O)c2c3c(cn2C)S(=O)(=O)NC2CN(C(=O)C(=O)N[C@@H](C)C(F)(F)F)CCC2CO3)ccc1F | PCR | HepAD38 |  | <0.5 µM |
| COc1ccc(-n2c(C(=O)NCc3ccccc3)c3n(c2=O)C[C@H](C2CC2)N(C(=O)c2ccc(Br)c(Cl)c2)C3)cc1 | PCR | HepG2.117 |  | 0.1–0.5 µM |
| C[C@@H]1CS(=O)(=O)[C@@H](c2cccs2)CN1C(=O)c1ccc(Br)c(Cl)c1 | PCR | HepG2.117 |  | 0.5–5 µM |
| COC(=O)C1=C(CN2CC(F)(F)[C@@H]3[C@H]2CON3C[C@H](OC)C(C)(C)C(=O)O)NC(c2nccs2)=N[C@H]1c1cccc(F)c1Cl | PCR | HepG2.2.15 |  | 0.033 µM |
| Cn1nc2cc(NS(=O)(=O)NC(c3ccccn3)C(F)(F)F)ccc2c1C(=O)Nc1ccc(F)c(Cl)c1 | PCR | HepAD38 |  | >1000 µM |
| Cn1cc(S(=O)(=O)N[C@@H]2CCN(C(=O)C(=O)NC3COC3)C2)c(F)c1C(=O)Nc1cc(F)c(F)c(F)c1 | PCR | HepAD38 cells |  | <0.1 µM |
| C[C@@H](c1ccccc1)c1cnc([C@@]2(F)CN(C(=O)c3ccc(Br)c(Cl)c3)CCS2(=O)=O)s1 | PCR | HepG2.117 |  | <0.1 µM |
| Cc1cc(NC(=O)c2c3c(cn2C)S(=O)(=O)N[C@H]2CN(C(=O)C(=O)NC4(C)COC4)C[C@H]2CO3)ccc1F | PCR | HepG2 |  | <0.5 µM |
| COc1cc(C#N)ccc1CNC(=O)c1c2n(c(=O)n1-c1ccc(OCC(F)(F)F)cc1)CCN(C(=O)c1ccc(Br)c(Cl)c1)C2 | PCR | HepG2.117 |  | 0.1–0.5 µM |
| O=C(c1ccc(Br)c(Cl)c1)N1CCS(=O)(=O)[C@](F)(c2ncc(Cc3ccccc3)s2)C1 | PCR | HepG2.117 |  | <0.1 µM |
| COc1ccc(-n2c(C(=O)N[C@@H](c3ccccc3)C3CC3)c3n(c2=O)CCN(C(=O)c2ccc(Br)c(Cl)c2)C3)cc1 | PCR | HepG2.117 |  | 0.5–5 µM |
| Cn1nc2cc(NS(=O)(=O)c3cnn(-c4nccc(N)n4)c3)ccc2c1C(=O)Nc1ccc(F)c(Cl)c1 | PCR | HepAD38 |  | 100–1000 µM |

a–b is a range or a potency band. Rows are shuffled and stem from different studies. Blank or dashed fields: not listed here.